System: infected target cells
Test: in vitro eradication assay, HIV-specific T cells co-cultured with infected target cells
Format: cell-based
Conditions: in the presence of the latency reversing drug; FIG. 4
Description: The in vitro cell eradication assay presented in this Example was directed to determining if T pharmacytes can induce expression of HIV expression in latently infected cells and kill those cells. HIV-specific T cells and Cytomegalovirus (CMV)-specific T cells were co-cultured with infected target cells (and mock-infected target cells) without the addition of any exogenous cytokines.

IL-2: cytokine used as latency reversing drug
response of HIV-specific T cells to infected target cells: specifically respond to these infected target cells only in the presence of latency reversing drugs
